Article PMC12598866, “A Comparative Study of Virucidal and Virustatic Multivalent Entry Inhibitors” (The Journal of Physical Chemistry. B, 2025)

System: glycoprotein D (gD) of HSV
Test: Isothermal titration calorimetry with glycoprotein D
Format: binding
Details: ITC, 25°C
Procedure: Isothermal titration calorimetry (ITC) experiments were conducted using ITC200 instruments (GE Healthcare, USA) equipped with a 200 μL sample cell and a 40 μL syringe. Thirteen injections were applied. The first data point was excluded. BSA protein and viral protein concentrations in the cell were approximately 50 μM and 1 mg/mL, respectively, and ligand concentrations in the syringe were roughly 2 mM. They were centrifuged at 2000g for 2 min to remove bubbles. The titration was performed at 25 or 37 °C, with data analyzed using MicroCal PEAQ ITC software. Baseline correction was applied, and Nitpic/Sedphat was used for automated integration to ensure precise binding parameter determination.

Structure (SMILES) | -∆TS (Glycoprotein D) | ∆G (Glycoprotein D) | ∆H (Glycoprotein D)
O=S(=O)(O)OCCCCCCCCCCCSCc1cc(CSCCCCCCCCCCCOS(=O)(=O)O)cc(CSCCCCCCCCCCCOS(=O)(=O)O)c1 [B3C11SO4] | -4.17 kcal/mol | -6.21 kcal/mol | -2.04 kcal/mol
O=S(=O)(O)CCCCCCSCc1cc(CSCCCCCCS(=O)(=O)O)cc(CSCCCCCCS(=O)(=O)O)c1 [B3C6SO3] | -3.59 kcal/mol | -6.61 kcal/mol | -3.02 kcal/mol
O=S(=O)(O)CCCCCCCCCCCSCc1cc(CSCCCCCCCCCCCS(=O)(=O)O)cc(CSCCCCCCCCCCCS(=O)(=O)O)c1 [B3C11SO3] | -5.04 kcal/mol | -6.32 kcal/mol | -1.28 kcal/mol
O=S(=O)(O)CCCCCCCCCCCSCc1cc2c(cc1CSCCCCCCCCCCCS(=O)(=O)O)OCCOCCOc1cc(CSCCCCCCCCCCCS(=O)(=O)O)c(CSCCCCCCCCCCCS(=O)(=O)O)cc1OCCOCCO2 [C4C11SO3] | -4.72 kcal/mol | -5.56 kcal/mol | -0.839 kcal/mol
O=S(=O)(O)OCCCCCCSCc1cc(CSCCCCCCOS(=O)(=O)O)cc(CSCCCCCCOS(=O)(=O)O)c1 [B3C6SO4] | -4.61 kcal/mol | -6.21 kcal/mol | -1.6 kcal/mol
O=S(=O)(O)OCCCCCCCCCCCSCc1cc2c(cc1CSCCCCCCCCCCCOS(=O)(=O)O)OCCOCCOc1cc(CSCCCCCCCCCCCOS(=O)(=O)O)c(CSCCCCCCCCCCCOS(=O)(=O)O)cc1OCCOCCO2 [C4C11SO4] | -4.38 kcal/mol | -5.25 kcal/mol | -0.875 kcal/mol
